# Human monoclonal antibodies against the spike receptor-binding domain (heavy:light variable regions). IC50 against pseudoviruses bearing the spike of naturally observed variants; lower = stronger; >10 µg/ml means not reached at the top dose. No active / inactive call. The stated detection limit is 0.0005 µg/ml; values near or below 0.001 µg/ml lie at the floor of the assay.
# B1: BD55-3741 (protein)
# chain 1: VQVVQSGAEVKKPGESLKISCKVSGYSFSIYWIAWVRQMSGKGLEWMGIIYPGDSDTRYSPSFQGQVTISADKSISTAYLQWSSLKASDTAKYYCAAVGGINAAFDIWGRGTMVTVSS
# chain 2: DIVMTQSPDSLAVSLGERATINCKSSQSVLHRSSNKNFVAWYQHKPGQPPALLFYWASTRETGVPDRFSGSGSGTDFTLTISSLQAEDVAVYYCQQYYTTPYTFGQGTKLEIK
# B2: BD55-3525 (protein)
# chain 1: EVQVVESGGGLVKPGGSLRLSCAGSGFTFNYAWMNWVRQAPGKGLEWVGRIKSETGGGTTDYAAPVRGRFTISRDDSKDTVFLQMNSLKTEDTAVYYCTTEATVTSWDAFDVWGQGTLVTVST
# chain 2: QSVLTQPPSASGTSGQRVTISCSGSSSNIGSNTVNWYQQIPRRAPKLLIYRNNQRPSGVPDRFSASKSGTSASLAISGLHSEDEADYYCAAWDDRLNGFVFGTGTKVTVL
# B3: BD55-3597 (protein)
# chain 1: QVQLVESGGGVVQPGRSLRFSCAASGFTFSSYGMHWVRQAPGKGLEWVAVTSYDGKNKYYADSVKGRFTISRDNSKNTVYLQMNSLRAEDTAVYYCAKGSGSGWYEIFQFSMDVWGKGTTVTVSS
# chain 2: QSVLTQPPSVSGAPGQKVTISCTGSSSNIGSGYDVHWYQQLPGAAPKLLIHGNSNRPSGVPDRFSGSKSGTSASLAITGLQAEDEADYYCQSYDSTLSLWVFGGGTKLTVL
# B4: BD55-3546 (protein)
# chain 1: QVQLVQSGSALKRPGASVKLSCKASGYTFINYAIHWVRQAPGQGLQWMGWINPNTGIPTYAQGFTGRFVFSLDTSVSTAYLQLSSLKIEDTAVYYCARDQDLYERAFDIWGQGTMVTVSS
# chain 2: DVVLTQSPATLSVSPGERATLSCRASHNVGTSLAWYQQKPGQAPRLLIHGVSTRATGVPARFSDSGSGTEFTLTISSLQSEDLAVYYCQQYNYWPLTFGGGTKVEIK
# B5: BD55-3611 (protein)
# chain 1: EVQLVQSGAEVKKPGESLKISCKGSGYMFKSYWIGWVRQMPGKGLEWMGLIYPDDSDTKYSPSFQGHVTISADKSISTAYLQWSSLKASDTAMYYCASVNNYYFGYFDLWGPGTPVTVSS
# chain 2: DVQMTQSPSSLSASVGDRVTITCRASQGIRSDVGWYQQKPGKPPKRLIYAASSLENGVPSRFSGSGSGTAFTLTISSLQPEDFATYYCLQQSTYPPTFGQGTKLEIK
# B6: BD55-3484 (protein)
# chain 1: EVRLAESGGGLVKPGGSLRLSCAASGFSFSDAWMSWVRQAPGKGLEWVGHIKSEISGGTTDYAVPVKGRFTISRDDSKNTLYLQMNSLKTEDTAMYYCVSSDIWRFYDSGMDVWGHGTTVTVSS
# chain 2: DIQMTQSPSTLSASVGDRVTITCRASQSISIWLAWYQQKAGKAPKLLVYKASRLESGVPSRFSGSGSGTEFTLTISSLQPDDFAIYYCQQYDSYPLTFGGGTKVQIK
# Tests used:
# Experiment in all cases: pseudovirus neutralization IC50; higher = weaker neutralization
# [1] = target: SARS-CoV-2 Omicron BA.1 spike pseudovirus
# Procedure: (§1)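 Single-round VSV luciferase pseudovirus mixed with antibody dilutions for 1 h and put on Huh-7 cells for about a day; IC50 from the dose curve.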
# [2] = target: SARS-CoV-2 Omicron BA.2 spike pseudovirus
# Procedure: as §1
# [3] = target: SARS-CoV-2 Omicron BA.2.75 spike pseudovirus
# Procedure: as §1
# [4] = target: SARS-CoV-2 Omicron BA.5 spike pseudovirus
# Procedure: as §1
# [5] = target: SARS-CoV-2 Omicron BQ.1.1 spike pseudovirus
# Procedure: as §1
# [6] = target: SARS-CoV-2 Omicron XBB spike pseudovirus
# Procedure: as §1
# [7] = target: SARS-CoV-2 early D614G spike pseudovirus
# Procedure: as §1
Binder,pseudovirus neutralization IC50 [1],pseudovirus neutralization IC50 [2],pseudovirus neutralization IC50 [3],pseudovirus neutralization IC50 [4],pseudovirus neutralization IC50 [5],pseudovirus neutralization IC50 [6],pseudovirus neutralization IC50 [7]
B1,> 10 µg/mL,> 10 µg/mL,> 10 µg/mL,> 10 µg/mL,> 10 µg/mL,> 10 µg/mL,> 10 µg/mL
B2,5.44 µg/mL,6.97 µg/mL,4.48 µg/mL,> 10 µg/mL,> 10 µg/mL,> 10 µg/mL,1.56 µg/mL
B3,2.45 µg/mL,1.96 µg/mL,4.32 µg/mL,3.15 µg/mL,3.57 µg/mL,4.95 µg/mL,1.06 µg/mL
B4,0.0058 µg/mL,0.0359 µg/mL,3.06 µg/mL,0.0958 µg/mL,> 10 µg/mL,> 10 µg/mL,0.00113 µg/mL
B5,3.65 µg/mL,3.02 µg/mL,3.92 µg/mL,3.55 µg/mL,2.39 µg/mL,3.57 µg/mL,3.04 µg/mL
B6,2.31 µg/mL,2.7 µg/mL,2.82 µg/mL,2.79 µg/mL,> 10 µg/mL,> 10 µg/mL,8.28 µg/mL

# Source: the supplement of paper PMC9931576
